Measured values from several laboratories, pooled; numbers as filed in NIAID ChemDB.

Shared fields: tests in culture; organism: Mycobacterium tuberculosis

For "inactive" no cut-off is given. Zones are inhibition diameters on agar. MIC bound: limit read from a one-dose screen. Percent inhibition refers to the dose given; in toxicity tests it is the harm to the cells. a–b is a range or a potency band. MIC50, MIC90 and the like: level of inhibition, or share of isolates inhibited. Conditions beyond the fields shown may differ between rows. Blank or dashed fields: not listed here.

SMILES,cells,tested at,mutations,strain or isolate,method,read-out,value
COC(C(=O)[C@@H](O)[C@@H](C)O)C1Cc2cc3cc(OC4CC(OC(C)=O)C(OC5CC(O)C(OC)C(C)O5)C(C)O4)cc(O)c3c(O)c2C(=O)[C@H]1OC1CC(OC2CC(OC3CC(C)(O)C(O)C(C)O3)C(O)C(C)O2)C(O)C(C)O1,,,,H37Rv,BACTEC,MIC bound,>12.5 µg/mL
NNC(=O)c1ccncc1,,,,2218,,MIC,>2 µg/mL
CCO/N=C1/C(=O)N(CCOCCOCCOCCn2c(O)c(N=O)c3ccccc32)c2ccc(C)cc21,,,MDR,,visual reading,MIC,512 µg/mL
c1ccc(C2(c3ccccn3)Nc3ccccc3S2)cc1,,,,H37Rv,,MIC,0.6 µg/mL
CC(C)[C@H]1CO[C@]23CC[C@@H](N(CCCC(F)(F)F)Cc4ccc(C(F)(F)F)cc4)C[C@H]2CCC(=O)N13,,,,,resazurin,MIC,0.5–5 µM
COc1ccc(C2CC(COC(C)=O)ON2c2ccccc2)cc1,,6.25 µg/mL,,H37Rv,,inhibition,inactive
CO/N=C1/C(=O)N(CCOCCOCCOCCn2c(O)c(N=O)c3ccccc32)c2ccc(C)cc21,,,MDR,,visual reading,MIC,128 µg/mL
COc1ccc(C2=C(C(=O)Nc3ccc(S(=O)(=O)c4ccc(NC(=O)C5=C(c6ccc(OC)cc6)NC(N)=NC5C)cc4)cc3)C(C)N=C(N)N2)cc1,,,,H37Rv,,MIC,0.86 µM
C/C=C/c1ccc2oc(-c3ccc(OC)c(OC)c3)c(C)c2c1,,,,Clinical isolate 4851,resazurin / absorbance,MIC,7.8 µg/mL
CC(C)[C@H]1CO[C@]23CC[C@H](NCC4=Cc5ccccc5C4N)C[C@H]2CCC(=O)N13,,,,,resazurin,MIC,<0.5 µM
NNC(=O)c1ccncc1,,,MDR,,visual reading,MIC,>128 µg/mL
NC(=O)c1cnc(Cl)cn1,,,,BDDIS 20,,MIC,32 µg/mL
CO/N=C1/C(=O)N(CCOCCOCCOCCn2c(O)c(N=NC(N)=O)c3cc(F)ccc32)c2ccc(F)cc21,,,MDR,,visual reading,MIC,16 µg/mL
O=C(O)c1c2n(c3cc(F)c(N4CCC(n5c(=O)[nH]c6ccc(Cl)cc65)CC4)cc3c1=O)CS2,,,MDR-TB,H37Rv,agar,MIC,6.25 µM
c1ccc2c(c1)NC(c1ccc3ccccc3n1)S2,,,,H37Rv,,MIC,1.6 µg/mL
Nc1ccc(S(=O)(=O)Nc2cnccn2)cc1,,128 µg/mL,,H37Rv,BACTEC,inhibition,96%
CCCCCCCCO[C@@H]1O[C@H]([C@@H](COCc2ccccc2)O[C@H]2O[C@H](COC(=O)c3ccccc3)[C@@H](OC(=O)c3ccccc3)[C@@H]2OC(=O)c2ccccc2)[C@H](OCc2ccccc2)[C@H]1OCc1ccccc1,,,,H37Ra,,MIC,>128 µg/mL
NNC(=O)/C=C/c1ccncc1,,12.5 µg/mL,,H37Rv,BACTEC,inhibition,4%
c1ccc(CC2Nc3ccccc3S2)cc1,,,,H37Rv,,MIC,50 µg/mL
O=c1c2ccccc2nnn1N1CCOCC1,,,,H37Rv,BACTEC,MIC bound,>12.5 µg/mL
CO/N=C1/C(=O)N(CCOCCOCCOCCN2C(=O)C(=O)c3cc(F)ccc32)c2ccc(F)cc21,,,MDR,,visual reading,MIC,64 µg/mL
COc1ccc(C2=C(C(=O)Nc3ccc(S(=O)(=O)c4ccc(NC(=O)C5=C(c6ccc(OC)c(OC)c6)NC(N)=NC5C)cc4)cc3)C(C)N=C(N)N2)cc1OC,,,,H37Rv,,MIC,1.48 µM
O=c1[nH]c(N2CCN(c3ccccc3)CC2)nc2cc3ccccc3cc12,,,,H37Rv,resazurin,MIC bound,>6.25 µg/mL
NNC(=O)c1c(C2CCCCC2)nc2ccccc2c1C1CCCCC1,,6.25 µg/mL,,H37Ra,BACTEC,inhibition,44%
CC1CN(c2cc3c(=O)c(C(=O)O)c4n(c3cc2[N+](=O)[O-])CS4)CC(C)O1,,,MDR-TB,H37Rv,agar,MIC,3.99 µM
CC(C)[C@H]1CO[C@]23CC[C@H](N(Cc4ccc(C(F)(F)F)cc4)CC4CCNCC4)C[C@H]2CCC(=O)N13,,,,,resazurin,MIC,<0.5 µM
O=C(NC(=O)c1c(Cl)nc2sccn12)Nc1ccc(Cl)cc1,,,,H37Rv,BACTEC,MIC bound,>12.5 µg/mL
CC(=O)OCC1CC(c2cccc(Br)c2)N(c2ccccc2)O1,,6.25 µg/mL,,H37Rv,,inhibition,inactive
O=C1CN(c2ccccc2)C(=O)CN1/N=C/c1ccc[nH]1,,,,H37Rv,BACTEC,MIC bound,>12.5 µg/mL
O=C(O)c1c2n(c3cc(F)c(N4CCSCC4)cc3c1=O)CS2,,,,H37Rv,agar,MIC,4.43 µM
OC(COc1ccc2c(c1)CCC2)Cn1cnc2ccccc21,,,,H37Rv,fluorescence,MIC,25 µg/mL
CN1c2ccc(C3N(C(=O)C(F)(F)F)C=CN3C(=O)C(F)(F)F)cc2Sc2cc(C3N(C(=O)C(F)(F)F)C=CN3C(=O)C(F)(F)F)ccc21,VERO,,,H37Rv,,MIC,12.5 µg/mL
CNC(=S)N(Cc1ccco1)c1ccc(Cl)c(Cl)c1,,,,,visual reading,MIC,200 µg/mL
CCOc1ccc2c(c1)[n+]([O-])c(S(=O)(=O)c1ccc(C)cc1)c(N)[n+]2[O-],,,,H37Rv,BACTEC,MIC,≥12.5 µg/mL
NNC(=O)c1ccncc1,,,,H37Rv,,MIC,0.73 µM
CC(C)[C@H]1CO[C@]23CC[C@H](N(Cc4ccc(C(F)(F)F)cc4)C[C@@H]4CCCN4)C[C@H]2CCC(=O)N13,,,,,resazurin,MIC,0.5–5 µM
O=C(O)c1cn2c(n1)CN(c1cc3c(=O)c(C(=O)O)c4n(c3cc1[N+](=O)[O-])CS4)CC2,,,,H37Rv,agar,MIC,0.2 µM
CC1Cn2c(nc3ccccc32)NC1=O,,6.25 µg/mL,,H37Rv,resazurin,inhibition,9%
CCC1(c2ccccn2)Nc2ccccc2S1,,,,H37Rv,,MIC,>200 µg/mL
S=C(Nc1ccccc1)N(Cc1ccco1)c1ccc(Cl)c(Cl)c1,,1000 µg/mL,,,visual reading,zone,18.88 mm
CCOC(=O)c1cn(C)c2c(cc([N+](=O)[O-])c3cccnc32)c1=O,,,gyrA mutation A90V gyrB mutation Q540V,H37Rv,,MIC90,>50 µM
CC1(c2ccccn2)Nc2ccccc2S1,,,,H37Rv,,MIC,6.3 µg/mL
NNC(=O)c1c(C2CCCC2)nc2ccccc2c1C1CCCC1,,,,H37Ra,BACTEC,MIC,>6.25 µg/mL
CNc1ncccc1Nc1cc(=O)n2c3cccnc3n(C)c2c1,,,,H37Rv,resazurin,MIC bound,>6.25 µg/mL
COc1ccc(C2=C(C(=O)Nc3ccc(S(=O)(=O)c4ccc(NC(=O)C5=C(c6ccc(OC)c(O)c6)NC(N)=NC5C)cc4)cc3)C(C)N=C(N)N2)cc1O,,,,INH resistant,,MIC,7.74 µM
NNC(=O)c1cc(C2CCCCC2)c2cccc(C3CCCCC3)c2n1,,,,H37Ra,BACTEC,MIC,>6.25 µg/mL
CC(=O)OCC1CC(c2ccc(Cl)cc2)N(c2ccccc2)O1,,6.25 µg/mL,,H37Rv,,inhibition,inactive
CCCCCCCNC(=O)c1cc(C2C3CC4CC(C3)CC2C4)c2ccccc2n1,,,,H37Ra,BACTEC,MIC,>6.25 µg/mL
CCc1cc(C(N)=S)ccn1,,,,,visual reading,MIC,3.12 µg/mL
C[C@@H]1[C@H](O)[C@@H](C)/C=C/C=C/CC/C=C/C=C/C=C/C=C/C(O[C@H]2O[C@H](C)[C@@H](O)[C@H](N)[C@@H]2O)CC2O[C@](O)(CC(O)C(O)CCC(O)CC(O)CC(O)CC(=O)O[C@H]1C)CC(O)C2C(=O)O,,12.8 µg/mL,,H37Rv,BACTEC,inhibition,0%
c1c[nH]c(C2Nc3ccccc3S2)c1,,,,H37Rv,,MIC,0.6 µg/mL
CCO/N=C1/C(=O)N(CCOCCOCCOCCN2C(=O)C(=O)c3cc(F)ccc32)c2ccc(C)cc21,,,MDR,,visual reading,MIC,256 µg/mL
CC1N=C(N)NC(c2ccccc2Cl)=C1C(=O)Nc1ccc(S(=O)(=O)c2ccc(NC(=O)C3=C(c4ccccc4Cl)NC(N)=NC3C)cc2)cc1,,,,INH resistant,,MIC,1.72 µM
OC(c1cc(C(F)(F)F)nc2c(Cl)cc(Cl)cc12)C1CCCCN1,VERO,,,H37Rv,,MIC,3.13 µg/mL
COc1ccc(C2CC(OC(C)=O)ON2c2ccccc2)cc1,,6.25 µg/mL,,H37Rv,,inhibition,10%
O=C(Nc1ccc([N+](=O)[O-])cc1)c1cc(C2C3CC4CC(C3)CC2C4)c2ccccc2n1,,6.25 µg/mL,,H37Ra,BACTEC,inhibition,43%
O=C(O)c1c2n(c3cc(F)c(N4CCC(O)(c5ccc(Cl)cc5)CC4)cc3c1=O)CS2,,,MDR-TB,H37Rv,agar,MIC,6.79 µM
CCO/N=C1\C(=O)N(CCOCCOCCOCCN2C(=O)/C(=N/OC)c3cc(F)ccc32)c2ccc(F)cc21,,,,H37Rv,visual reading,MIC,64 µg/mL
CCn1cc(C(=O)O)c(=O)c2ccc(C)nc21,,,gyrA mutation A90V gyrB mutation Q540V,H37Rv,,MIC90,>50 µM
CCCCCNC(=O)c1cc(C2C3CC4CC(C3)CC2C4)c2ccccc2n1,,6.25 µg/mL,,H37Ra,BACTEC,inhibition,14%
O=[N+]([O-])c1cc(Cl)c2[nH]c3c(Cl)cc([N+](=O)[O-])cc3c2c1,,12.5 µg/mL,,H37Rv,BACTEC,inhibition,94%
C/C=C/c1ccc2oc(-c3ccc(O)c(OC)c3)c(C)c2c1,,,,H37Rv,resazurin / absorbance,MIC,1.9 µg/mL
O=C(O)C1=C(C(=O)Nc2ccc(NC(=O)C3=C(C(=O)O)CCC3)cc2)CCC1,,,,H37Rv,BACTEC,MIC bound,>12.5 µg/mL
COc1cccc2c1NC(c1ccncc1)S2,,,,H37Rv,,MIC,1.6 µg/mL
O=C(Nc1cnc2ccccc2c1)c1cc(C2C3CC4CC(C3)CC2C4)c2ccccc2n1,,6.25 µg/mL,,H37Ra,BACTEC,inhibition,40%
Cc1cccnc1C1Nc2ccccc2S1,,,,H37Rv,,MIC,3.1 µg/mL
COc1cc2c(cc1OC)CN(c1cc3c(=O)c(C(=O)O)c4n(c3cc1F)CS4)CC2,,,,H37Rv,agar,MIC,3.53 µM
OCCN(CCCN(CCO)C(=S)S)C(=S)S,,,,H37Rv,BACTEC,MIC bound,>12.5 µg/mL
NNC(=O)c1cnc2ccccc2c1,,,,H37Ra,BACTEC,MIC,>6.25 µg/mL
CCCCCCCCO[C@@H]1O[C@H]([C@@H](COCc2ccccc2)O[C@H]2O[C@H](CO)[C@@H](O)[C@@H]2O)[C@H](OCc2ccccc2)[C@H]1OCc1ccccc1,,,,H37Ra,,MIC,32 µg/mL
CC(=O)OC1CC(c2ccc(Cl)cc2)N(c2ccccc2)O1,,6.25 µg/mL,,H37Rv,,inhibition,83%
CC1CC(O)C2C3(C)C(=O)C34CCCC3(CC23C12CCC1(CCOC1=O)O2)O4,,,,H37Rv,BACTEC,MIC,≥12.5 µg/mL
CC(C)[C@H]1CO[C@]23CC[C@H](N(Cc4ccc(C(F)(F)F)cc4)CC4CC4(F)F)C[C@H]2CCC(=O)N13,,,,,resazurin,MIC,<0.5 µM
CCCCCC(CC(=O)N1N=CCCC1C(=O)N[C@H]1COC(=O)C2C[C@@H](C)CNN2C(=O)[C@H](C)NC(=O)[C@@H](CC(C)C)NC1=O)C(=O)O,,,,H37Rv,,MIC,12.5 µg/mL
NNC(=O)c1ccncc1,,,,Clinical isolate 11,resazurin / absorbance,MIC,0.03 µg/mL
Cc1cc(C)nc(NS(=O)(=O)c2ccc(N=NC3=C(O)C(c4ccccc4)N(c4ccccc4)C3=O)cc2)n1,,,,H37Rv,BACTEC,MIC,≥12.5 µg/mL
CO[C@H]1/C=C/O[C@@]2(C)Oc3c(C)c(O)c4c(O)c(c(/C=N/N5CCN(C/C=C/c6ccccc6)CC5)c(O)c4c3C2=O)NC(=O)/C(C)=C\C=C\[C@H](C)[C@H](O)[C@@H](C)[C@@H](O)[C@@H](C)[C@H](OC(C)=O)[C@@H]1C,,,,MTB29 (MDR),,MIC,>8 µg/mL
O=C1C2=C(Nc3ccccc3N2)OC1c1ccccc1O,,12.5 µg/mL,,H37Rv,BACTEC,inhibition,4%
CNC(=S)N(c1ccc(F)c(Cl)c1)C(C)C,,1000 µg/mL,,,visual reading,zone,9.93 mm
Cl.NCCc1nc(-c2nc(C(=O)O)cs2)cs1,,12.8 µg/mL,,H37Rv,BACTEC,inhibition,23%
CC1CN(c2cc3c(=O)c(C(=O)O)c4n(c3cc2F)CS4)CC(C)O1,,,MDR-TB,H37Rv,agar,MIC,4.28 µM

11 of the rows above, restated:

SMILES	cells	tested at	mutations	strain or isolate	method	read-out	value
C/C=C/c1ccc2oc(-c3ccc(OC)c(OC)c3)c(C)c2c1				Clinical isolate 4851	resazurin / absorbance	MIC	7.8 µg/mL
NC(=O)c1cnc(Cl)cn1				BDDIS 20		MIC	32 µg/mL
O=c1c2ccccc2nnn1N1CCOCC1				H37Rv	BACTEC	MIC bound	>12.5 µg/mL
CCOc1ccc2c(c1)[n+]([O-])c(S(=O)(=O)c1ccc(C)cc1)c(N)[n+]2[O-]				H37Rv	BACTEC	MIC	≥12.5 µg/mL
NNC(=O)c1ccncc1			MDR		visual reading	MIC	>128 µg/mL
c1ccc(C2(c3ccccn3)Nc3ccccc3S2)cc1				H37Rv		MIC	0.6 µg/mL
COc1cc2c(cc1OC)CN(c1cc3c(=O)c(C(=O)O)c4n(c3cc1F)CS4)CC2				H37Rv	agar	MIC	3.53 µM
CC(C)[C@H]1CO[C@]23CC[C@H](N(Cc4ccc(C(F)(F)F)cc4)CC4CC4(F)F)C[C@H]2CCC(=O)N13					resazurin	MIC	<0.5 µM
COc1ccc(C2=C(C(=O)Nc3ccc(S(=O)(=O)c4ccc(NC(=O)C5=C(c6ccc(OC)cc6)NC(N)=NC5C)cc4)cc3)C(C)N=C(N)N2)cc1				H37Rv		MIC	0.86 µM
COc1ccc(C2CC(COC(C)=O)ON2c2ccccc2)cc1		6.25 µg/mL		H37Rv		inhibition	inactive
CNc1ncccc1Nc1cc(=O)n2c3cccnc3n(C)c2c1				H37Rv	resazurin	MIC bound	>6.25 µg/mL